Test results from paper PMC2868945 (Bioorganic & medicinal chemistry, 2010).

Amino acid sequences for entries named in this document (tags omitted). A change or cut given only in a name is not applied to a line headed by its entry.
UniProt P9WK35: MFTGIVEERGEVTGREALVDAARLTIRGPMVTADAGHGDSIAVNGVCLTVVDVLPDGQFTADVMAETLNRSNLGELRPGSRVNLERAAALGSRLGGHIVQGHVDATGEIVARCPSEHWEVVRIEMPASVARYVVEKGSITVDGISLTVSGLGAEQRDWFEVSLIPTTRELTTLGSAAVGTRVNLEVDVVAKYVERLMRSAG

Target: recombinant riboflavin synthase of M. tuberculosis (Mycobacterium tuberculosis, UniProt P9WK35)
Experiment: Kinetic assay of riboflavin synthase inhibitors
Format: biochemical
Conditions: RS; fit parameter of the inhibitor's data set

Substance: 1,1-Difluoro-4-(2-oxo-1,2-dihydrobenzo[cd]indole-6-sulfonamido)pentylphosphonic Acid [Compound 72]
- Kcat (rate constant for ES ⇌ E + P): 0.15 ± 0.01 m^−1
